Measurements: patent US10603701B2, “Bioremediation of 1,4-dioxane and chlorinated aliphatic hydrocarbons by propanotrophic bacteria” (New Jersey Institute of Technology, priority 2018, dated 2020)

System: Azoarcus sp. DD4
Assay: Cometabolism of CAHs by DD4 resting cells after being fed with propane
Assay type: cell-based
Conditions: 0.13 mg protein mL^−1, 24 h, headspace GC

SMILES: Cl/C=C/Cl [trans-1,2-DCE]
- cometabolism by DD4 resting cells after growth with propane: no degradation
